The subject of the assay is Staphylococcus aureus. Description: Minimum Inhibitory Concentration (MIC) test and Kull synergy index. Format: cell-based. The conditions noted are these: Table 3, Component B alone.

On to Propanediol Caprylate, for which the “MIC Component B in ppm” value is recorded as 500 ppm.
